Anti-infective test results gathered from many reports (values: NIAID ChemDB through PubChem).

Common to all: whole-cell or culture tests; organism: HIV-1; endpoint: EC50

Lines come from different laboratories, so protocols vary.

smiles | setting | cell line | read by | mutations | strain or isolate | value
Cc1cn([C@@H]2O[C@H](CO)C3(OS(=O)(=O)C=C3N)[C@H]2O)c(=O)[nH]c1=O | - | MT-4 | cytopathic effect / trypan blue | - | IIIB | >100 µg/mL
Cc1ncnc(C)c1C(=O)N1C[C@H]2CN(CCC(c3ccccc3)C3CCN(CC(F)F)CC3)C[C@H]2C1 | - | - | cell fusion | - | - | 0.137 µM
Cc1cc(S(N)(=O)=O)ccc1NC(=O)COc1ccccc1C(=O)c1cc(Cl)cc(C#N)c1 | - | HeLa MAGI + HeLa | β-galactosidase | RT-K103N | - | ~0.001 µM
COCCNC(=O)COC(=O)c1c2c(nc3ccccc13)/C(=C/c1ccc(O)cc1)CCC2 | - | HEK 293 | β-galactosidase / GFP / reporter gene | - | - | 5 µM
CCN(C(=O)C(=O)N(C)C)[C@H]1CC[C@H](OC)Cn2c1nc(C(=O)NCc1ccc(F)cc1)c(O)c2=O | - | HeLa P4-2 | single cycle | Y143R | - | >0.1 µM
CC(C)(C)[Si](C)(C)OC[C@H]1O[C@@H](n2ccc(=O)[nH]c2=O)[C@H](O[Si](C)(C)C(C)(C)C)[C@@]12O[C@H]2C(N)=O | - | MT-4 | cytopathic effect / trypan blue | - | IIIB | >10 µM
CC(C)C1=C2[C@H]3CC[C@@H]4[C@@]5(C)CC[C@H](OC(=O)CC(C)(C)C(=O)O)C(C)(C)[C@@H]5CC[C@@]4(C)[C@]3(C)CC[C@@]2(NC(=O)c2cncn2C)CC1=O | 30% human serum | MT-2 | RT activity | - | IIIB | <0.199 µM
CCC(=O)c1cn(S(=O)(=O)c2ccc(OC)cc2)c2ccc(C#N)cc12 | - | C8166 | syncytia / visual reading | - | IIIB | 17.4 µg/mL
Cc1ccc(C(=O)N[C@@]23CC[C@]4(C)C(CCC5[C@@]6(C)CC[C@H](OC(=O)CC(C)(C)C(=O)O)C(C)(C)C6CC[C@]54C)C2=C(C(C)C)C(=O)C3)s1 | 30% human serum | MT-2 | RT activity | - | IIIB | <0.199 µM
CCCCOC(=O)[C@H](C)NP(=O)(CO[C@H](C)Cn1cnc2c(N)ncnc21)NC[C@H](C)C(=O)OC(C)C | 10% human serum | MT4-GFP | fluorescence | - | - | 19.6 µM
CCC(=O)c1cn(S(=O)(=O)c2cccc([N+](=O)[O-])c2)c2ccc(C#N)cc12 | - | C8166 | syncytia / visual reading | - | IIIB | >200 µg/mL
CC(C)C1=C2[C@H]3CC[C@@H]4[C@@]5(C)CC[C@H](OC(=O)[C@H]6C[C@@H](C(=O)O)C6(C)C)C(C)(C)[C@@H]5CC[C@@]4(C)[C@]3(C)CC[C@@]2(CC(=O)NCC(C)(C)NC(=O)c2cccnc2)CC1=O | - | MT-2 | p24 / ELISA | - | 92HT599 | <1 µM
CCC(=O)c1cn(S(=O)(=O)c2ccc(Cl)cc2)c2cc(C)ccc12 | - | C8166 | syncytia / visual reading | - | IIIB | 83.9 µg/mL
CC(C)C1=C2[C@H]3CC[C@@H]4[C@@]5(C)CC[C@H](OC(=O)[C@H]6C[C@@H](C(=O)O)C6(C)C)C(C)(C)[C@@H]5CC[C@@]4(C)[C@]3(C)CC[C@@]2(CCNCc2nccn2C)CC1=O | - | MT-2 | p24 / ELISA | - | 92HT599 | <1 µM
Cc1cc(CNC(=O)c2nc3n(c(=O)c2O)CC(C)(C)CC[C@@H]3N(C)C(=O)C(=O)N(C)C)ccc1F | - | HeLa P4-2 | single cycle | N155H | - | 0.014 µM
CC(C)C1=C2[C@H]3CC[C@@H]4[C@@]5(C)CC[C@H](OC(=O)[C@H]6C[C@@H](C(=O)O)C6(C)C)C(C)(C)[C@@H]5CC[C@@]4(C)[C@]3(C)CC[C@@]2([C@@H](O)CNC(=O)c2ccc(CN3CCOCC3)cc2)CC1=O | - | MT-2 | p24 / ELISA | - | 92HT599 | <1 µM
Cc1cn([C@H]2C[C@H](N=[N+]=[N-])[C@@H](COP(=O)(O)C(N)=O)O2)c(=O)[nH]c1=O | - | MT-4 | MTT / p24 | - | GKV-4046 | 0.1 µM
Cc1ncnc(C)c1C(=O)N1C[C@H]2CN(CCC(c3cccc(F)c3)C3CCN(CC(F)F)CC3)C[C@H]2C1 | - | - | cell fusion | - | - | 0.011 µM
CC[C@H]1COC[C@H](N(C)C(=O)C(=O)N(C)C)c2nc(C(=O)NCc3ccc(F)cc3)c(O)c(=O)n21 | - | HeLa P4-2 | single cycle | E92Q | - | 0.001 µM
CC(C)C1=C2C3CCC4[C@@]5(C)CC[C@H](OC(=O)CC(C)(C)C(=O)O)C(C)(C)C5CC[C@@]4(C)[C@]3(C)CC[C@@]2(NC(=O)c2nnc(C3CC3)o2)CC1=O | 30% human serum | MT-2 | RT activity | - | IIIB | <0.199 µM
CCC(=O)c1cn(S(=O)(=O)c2ccc(CC)cc2)c2cc(C)ccc12 | - | C8166 | syncytia / visual reading | - | IIIB | 4 µg/mL
Cc1ncnc(C)c1C(=O)N1C[C@H]2CN(CCC(c3ccccc3)C3CCN(C(=O)CC(C)C)CC3)C[C@H]2C1 | - | - | cell fusion | - | - | 2.819 µM
Cc1cn([C@@H]2O[C@H](CO[Si](C)(C)C(C)(C)C)C3(O[C@H]3C(=O)NO)[C@H]2O[Si](C)(C)C(C)(C)C)c(=O)[nH]c1=O | - | MT-4 | cytopathic effect / trypan blue | - | IIIB | >2 µM
CC(=O)O[C@H]1C[C@]2(C)[C@H]3[C@H](OC(=O)c4ccccc4)CC[C@]4(CO4)[C@]3(C)[C@@H](OC(C)=O)C[C@]2(C)O[C@]12COC(=O)C2 | - | C8166 | MTT / ELISA | - | IIIB | 48.24 µg/mL
CCCCCOC(=O)[C@H](C)NP(=O)(CO[C@H](C)Cn1cnc2c(N)ncnc21)NC[C@H](C)C(=O)OC(C)C | 10% human serum | MT4-GFP | fluorescence | - | - | 6.1 µM
CCNC(=O)NC(=O)COC(=O)c1c2c(nc3ccccc13)/C(=C/c1cccc([N+](=O)[O-])c1)CCC2 | - | HEK 293 | β-galactosidase / GFP / reporter gene | - | - | 3 µM
CCC(=O)c1ccc(F)c([C@@H]2C[C@@H]2NC(=O)Nc2ccc(C#N)cn2)c1O | - | TZM-bl | β-galactosidase / luminescence | NNRTI-resistant (RT L100V) | LAI | 0.00506 µM
CC(C)OC(=O)CCNP(=O)(CO[C@H](C)Cn1cnc2c(N)ncnc21)N[C@H](C)C(=O)OC(C)C | 50% human serum | MT4-GFP | fluorescence | - | - | 393 µM
CC(C)C1=C2[C@H]3CC[C@@H]4[C@@]5(C)CC[C@H](OC(=O)CC(C)(C)C(=O)O)C(C)(C)[C@@H]5CC[C@@]4(C)[C@]3(C)CC[C@@]2(NC(=O)Nc2ccccc2)CC1=O | 30% human serum | MT-2 | RT activity | - | IIIB | <0.199 µM
CCCCCCCCCCCCCCC(=O)Oc1ccc(OP(=O)(OCc2ccc(OC(=O)CCCC)cc2)OP(=O)(O)OP(=O)(O)OC[C@@H]2C=C[C@H](n3cc(C)c(=O)[nH]c3=O)O2)cc1 | - | CEM/TK- | syncytia / visual reading | - | IIIB | 0.69 µM
Cc1ccc(C(=O)N[C@@]23CC[C@]4(C)[C@H](CC[C@@H]5[C@@]6(C)CC[C@H](OC(=O)CC(C)(C)C(=O)O)C(C)(C)[C@@H]6CC[C@]54C)C2=C(C(C)C)C(=O)C3)cn1 | 30% human serum | MT-2 | RT activity | - | IIIB | <0.199 µM
CCCCCCCCCCCCCCC(=O)Oc1ccc(COP(=O)(Oc2ccc(OC(=O)CCCC(=O)OCCOCCOCCOC)cc2)OP(=O)(O)OP(=O)(O)OC[C@@H]2C=C[C@H](n3cc(C)c(=O)[nH]c3=O)O2)cc1 | - | CEM/TK- | syncytia / visual reading | - | IIIB | 2 µM
C=C(C)[C@@H]1CC[C@]2(C(=O)NCCCCCCCC(=O)N[C@@H](CC(C)C)[C@@H](O)CC(=O)O)CC[C@]3(C)[C@H](CC[C@@H]4[C@@]5(C)CC[C@H](O)C(C)(C)[C@@H]5CC[C@]43C)[C@@H]12 | - | U-937 | p24 / RT activity | - | IIIB | 0.08 µM
CCCCCCCOC(=O)[C@H](C)NP(=O)(CO[C@H](C)Cn1cnc2c(N)ncnc21)NC[C@H](C)C(=O)OC(C)C | 50% human serum | MT4-GFP | fluorescence | - | - | 43 µM
CC1=C(C(=O)OCC2CCCCC2)C(c2ccccc2)NC(=O)N1 | - | CEM | p24 / ELISA | - | - | ≤1 µM
C=C(C)[C@@H]1CC[C@]2(C(=O)NCCC(C)(C)C)CC[C@]3(C)[C@H](CC[C@@H]4[C@@]5(C)CC[C@H](OC(=O)CC(C)(C)C(=O)O)C(C)(C)[C@@H]5CC[C@]43C)[C@@H]12 | - | - | absorbance | V362I | NL4-3 | 0.052 µM
Cc1cc(CNC(=O)c2nc3n(c(=O)c2O)[C@H](C)COC[C@H]3N(C)C(=O)C(=O)N(C)C)ccc1F | - | HeLa P4-2 | single cycle | G140S/Q148H | - | 0.072 µM
CC(=O)O[C@H]1C[C@]2(C)[C@H]3[C@H](OC(C)=O)CC[C@]4(CO4)[C@]3(C)[C@@H](OC(C)=O)[C@H](OC(=O)c3ccccc3)[C@]2(C)O[C@]12COC(=O)C2 | - | C8166 | MTT / ELISA | - | IIIB | 54.64 µg/mL
CC(C)(C)[Si](C)(C)OC[C@H]1O[C@@H](n2ccc(=O)[nH]c2=O)[C@H](O[Si](C)(C)C(C)(C)C)[C@@]12O[C@H]2C(=O)NO | - | MT-4 | cytopathic effect / trypan blue | - | IIIB | >10 µM
CC(C)OC(=O)[C@H](C)CNP(=O)(CO[C@H](C)Cn1cnc2c(N)ncnc21)N[C@@H](C)C(=O)OC(C)C | 50% human serum | MT4-GFP | fluorescence | - | - | 97.2 µM
Cc1nnc(NC(=O)N[C@@]23CC[C@]4(C)C(CCC5[C@@]6(C)CC[C@H](OC(=O)CC(C)(C)C(=O)O)C(C)(C)C6CC[C@]54C)C2=C(C(C)C)C(=O)C3)s1 | 30% human serum | MT-2 | RT activity | - | IIIB | <0.199 µM
Cc1ncnc(C)c1C(=O)N1C[C@H]2CN(CCC(c3ccccc3)C3CN(C(=O)CC(C)C)C3)C[C@H]2C1 | - | - | cell fusion | - | - | 5 µM
CC(C)C1=C2[C@H]3CC[C@@H]4[C@@]5(C)CC[C@H](OC(=O)[C@H]6C[C@@H](C(=O)O)C6(C)C)C(C)(C)[C@@H]5CC[C@@]4(C)[C@]3(C)CC[C@@]2([C@@H](O)CNCc2csc(N)n2)CC1=O | - | MT-2 | p24 / ELISA | - | 92HT599 | <1 µM
Cc1cn([C@H]2C[C@H](N=[N+]=[N-])[C@@H](COP(=O)(O)CO)O2)c(=O)[nH]c1=O | - | MT-4 | MTT / p24 | - | GKV-4046 | 0.3 µM
O=C1NC(C2CC2)=C(C(=O)OCC2CCCCC2)C(c2ccc([N+](=O)[O-])cc2)N1 | - | CEM | p24 / ELISA | - | - | >5 µM
CCCCC(=O)Oc1ccc(COP(=O)(Oc2ccc(OC(=O)CCC(=O)OCCOCCOCCOC)cc2)OP(=O)(O)OP(=O)(O)OC[C@@H]2C=C[C@H](n3cc(C)c(=O)[nH]c3=O)O2)cc1 | - | CEM | syncytia / visual reading | - | IIIB | 0.34 µM
Cc1nc(C(=O)N[C@@]23CC[C@]4(C)C(CCC5[C@@]6(C)CC[C@H](OC(=O)CC(C)(C)C(=O)O)C(C)(C)C6CC[C@]54C)C2=C(C(C)C)C(=O)C3)no1 | 30% human serum | MT-2 | RT activity | - | IIIB | <0.199 µM
CCCCCCCCCCCCCCCCCC(=O)Oc1ccc(OP(=O)(OCc2ccc(OC(=O)CCCC)cc2)OP(=O)(O)OP(=O)(O)OC[C@@H]2C=C[C@H](n3cc(C)c(=O)[nH]c3=O)O2)cc1 | - | CEM/TK- | syncytia / visual reading | - | IIIB | 0.54 µM
CCCCCCOC(=O)C(C)(C)NP(=O)(CO[C@H](C)Cn1cnc2c(N)ncnc21)N[C@H](CC(=O)OC(C)C)C(C)C | 50% human serum | MT4-GFP | fluorescence | - | - | 5.7 µM
Cc1ncnc(C)c1C(=O)N1C[C@H]2CN(CCC(c3ccccc3)C3CCN(CC(F)(F)F)CC3)C[C@H]2C1 | - | - | cell fusion | - | - | 0.034 µM
CC[C@@H]1COC[C@H](N(C)C(=O)C(=O)N(C)C)c2nc(C(=O)NCc3ccc(F)cc3)c(O)c(=O)n21 | - | HeLa P4-2 | single cycle | G140S/Q148H | - | 0.116 µM
CCCCCOC(=O)C(C)(C)N[P@](=O)(CO[C@H](C)Cn1cnc2c(N)ncnc21)N[C@@H](CC(=O)OC(C)C)C(C)C | 50% human serum | MT4-GFP | fluorescence | - | - | 4.4 µM
C[C@@H]1C[C@H]2C3CCC4=CC(=O)C=C[C@]4(C)[C@@]3(F)[C@@H](O)C[C@]2(C)[C@@]1(O)C(=O)CO | - | MT-4 | XTT / p24 | - | IIIB | 100 µM
CC(C)C1=C2[C@H]3CC[C@@H]4[C@@]5(C)CC[C@H](OC(=O)[C@H]6C[C@@H](C(=O)O)C6(C)C)C(C)(C)[C@@H]5CC[C@@]4(C)[C@]3(C)CC[C@@]2(CC(=O)NCc2ccc(Cl)cc2OCCN2CCCCC2)CC1=O | - | MT-2 | p24 / ELISA | - | 92HT599 | <1 µM
CCC1=C(C(=O)OCC2CCCCC2)C(c2cccc(C(=O)O)c2)NC(=O)N1 | - | CEM | p24 / ELISA | - | - | >5 µM
CCN(C(=O)C(=O)N(C)C)[C@@H]1CC[C@H](OC)Cn2c1nc(C(=O)NCc1ccc(F)cc1)c(O)c2=O | - | HeLa P4-2 | single cycle | Y143R | - | 0.003 µM
CC(C)C1=C2[C@H]3CC[C@@H]4[C@@]5(C)CC[C@H](OC(=O)[C@H]6C[C@@H](C(=O)O)C6(C)C)C(C)(C)[C@@H]5CC[C@@]4(C)[C@]3(C)CC[C@@]2([C@@H](O)CNC(=O)C(F)NC(=O)c2ccc(Cl)cc2)CC1=O | - | MT-2 | p24 / ELISA | - | 92HT599 | <1 µM
CC(C)C1=C2C3CCC4[C@@]5(C)CC[C@H](OC(=O)CC(C)(C)C(=O)O)C(C)(C)C5CC[C@@]4(C)[C@]3(C)CC[C@@]2(NC(=O)OCC2CC2)CC1=O | 30% human serum | MT-2 | RT activity | - | IIIB | <0.199 µM

ECn is the concentration giving n% inhibition of infection, replication or growth. Blank or dashed fields: not listed here.